Experimental data published in patent publication US7652050B2, “Methods for increasing the survival of aquatic animals infected with an aquatic virus” (Laboratorio de Siagnóstico GAM S.A, priority 2001, dated 2010).

Tested on: IPNV
Test: Survival of IPNV-infected Atlantic salmon fry treated with neomycin by immersion
Conditions: neomycin as low as 10 ppm, 1 hour daily bath through day 10; followed 26 days

Substance: neomycin
- Survival of infected fry, treatment from day one post-infection: can maintain survival to levels equivalent to the uninfected controls
